Genome-wide point mutation profile of HIV-1: Gag

Source: Al-Mawsawi et al. 2014 (doi:10.1186/s12977-014-0124-6), supplementary data.

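Random point mutant libraries of HIV-1 NL4-3, one for each of seven fragments, were passaged in CEM T lymphocytes. The RC index is the frequency of a change after passage round 2 divided by its frequency in the plasmid library.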

Protein: Gag of HIV-1 NL4-3, numbered from its first residue. Gag is numbered as the whole polyprotein.
Effects on overlapping genes or RNA elements are not listed.

RC index: lower means poorer replication; rough cut-offs are 0.1 (lethal) and 0.2 (tolerated). Substitutions are written as wild-type residue, site number, new residue. Since each clone held several changes (about five per kb), neutral changes can read low.

| # | substitution | base | region | replication capacity index |
|---|---|---|---|---|
| 1 | A210S | G1417T | CA | 0.0527 |
| 2 | R20Q | G848A | MA | 0.0958 |
| 3 | G248R | G1531A | CA | 0.503 |
| 4 | I92L | A1063T | MA | 0.171 |
| 5 | S126T | G1166C | MA | 0.0261 |
| 6 | N189Y | A1354T | CA | 0.0202 |
| 7 | W438C | G2103T | p1 | 0.0797 |
| 8 | E260K | G1567A | CA | 3.33 |
| 9 | I82L | A1033T | MA | 0.0595 |
| 10 | L51I | T940A | MA | 0.672 |
| 11 | S129T | G1175C | MA | 0.0634 |
| 12 | G288R | G1651A | CA | 0.399 |
| 13 | E42Q | G913C | MA | 0.0307 |
| 14 | Q90H | A1059C | MA | 0.0518 |
| 15 | N382S | A1934G | NC p7 | 0.239 |
| 16 | A336T | G1795A | CA | 0.115 |
| 17 | F300S | T1688C | CA | 0.103 |
| 18 | D284V | A1640T | CA | 0.0495 |
| 19 | Q90H | A1059T | MA | 0.0474 |
| 20 | T332I | C1784T | CA | 0.104 |
| 21 | E55D | A954T | MA | 0.0679 |
| 22 | C330S | T1777A | CA | 0.0280 |
| 23 | I376K | T1916A | p2 | 0.0130 |
| 24 | Q351K | C1840A | CA | 0.246 |
| 25 | Q195K | C1372A | CA | 0.237 |
| 26 | G192R | G1363A | CA | 0.109 |
| 27 | M187K | T1349A | CA | 0.0540 |
| 28 | K98T | A1082C | MA | 0.0899 |
| 29 | I247R | T1529G | CA | 0.0749 |
| 30 | A364T | G1879A | p2 | 0.111 |
| 31 | P292H | C1664A | CA | 0.0736 |
| 32 | N125K | C1164G | MA | 0.0568 |
| 33 | W16R | T835A | MA | 0.0337 |
| 34 | G226D | G1466A | CA | 0.113 |
| 35 | F172L | T1305G | CA | 0.130 |
| 36 | E55K | G952A | MA | 0.297 |
| 37 | H89L | A1055T | MA | 0.0459 |
| 38 | L50H | T938A | MA | 0.0326 |
| 39 | Y86H | T1045C | MA | 0.561 |
| 40 | D284N | G1639A | CA | 0.142 |
| 41 | Q308L | A1712T | CA | 0.0446 |
| 42 | Y262F | A1574T | CA | 0.0473 |
| 43 | T303N | C1697A | CA | 0.127 |
| 44 | E291K | G1660A | CA | 0.449 |
| 45 | Q430H | G2079T | NC p7 | 0.0892 |
| 46 | Q116H | G1137T | MA | 0.0646 |
| 47 | Q139H | G1206C | CA | 0.0666 |
| 48 | E107V | A1109T | MA | 0.0423 |
| 49 | A120S | G1147T | MA | 0.394 |
| 50 | G25R | G862A | MA | 0.136 |
| 51 | G56D | G956A | MA | 0.0867 |
| 52 | G412D | G2024A | NC p7 | 0.291 |
| 53 | S148A | T1231G | CA | 0.0488 |
| 54 | N153Y | A1246T | CA | 0.0322 |
| 55 | Y29F | A875T | MA | 0.0278 |
| 56 | A431V | C2081T | NC p7 | 0.305 |
| 57 | V158I | G1261A | CA | 0.140 |
| 58 | A237S | G1498T | CA | 0.0494 |
| 59 | A306S | G1705T | CA | 0.785 |
| 60 | V94A | T1070C | MA | 0.110 |
| 61 | V323F | G1756T | CA | 0.114 |
| 62 | E203V | A1397T | CA | 0.0662 |
| 63 | S241N | G1511A | CA | 0.0568 |
| 64 | N327D | A1768G | CA | 0.0338 |
| 65 | Q28R | A872G | MA | 0.0563 |
| 66 | K95I | A1073T | MA | 0.0960 |
| 67 | I247T | T1529C | CA | 0.0518 |
| 68 | M171L | A1300C | CA | 0.0573 |
| 69 | P255L | C1553T | CA | 0.0775 |
| 70 | Q145P | A1223C | CA | 0.0627 |
| 71 | Q108L | A1112T | MA | 0.0454 |
| 72 | T427I | C2069T | NC p7 | 0.0848 |
| 73 | Q195H | A1374C | CA | 0.0480 |
| 74 | K15R | A833G | MA | 0.0427 |
| 75 | V135M | G1192A | CA | 0.116 |
| 76 | M200K | T1388A | CA | 0.0408 |
| 77 | Q145K | C1222A | CA | 0.321 |
| 78 | N153I | A1247T | CA | 0.0229 |
| 79 | L184S | T1340C | CA | 0.0570 |
| 80 | Q116E | C1135G | MA | 0.0766 |
| 81 | Y86F | A1046T | MA | 0.0444 |
| 82 | N325D | A1762G | CA | 0.0379 |
| 83 | I333V | A1786G | CA | 0.0331 |
| 84 | T151A | A1240G | CA | 0.0486 |
| 85 | D14Y | G829T | MA | 0.162 |
| 86 | M142L | A1213T | CA | 0.0407 |
| 87 | W438R | T2101A | p1 | 0.0394 |
| 88 | K15I | A833T | MA | 0.0318 |
| 89 | S368R | C1893A | p2 | 0.0697 |
| 90 | E177D | A1320T | CA | 0.0488 |
| 91 | G381D | G1931A | NC p7 | 0.748 |
| 92 | P255S | C1552T | CA | 0.216 |
| 93 | P289A | C1654G | CA | 0.0319 |
| 94 | L85F | C1042T | MA | 0.128 |
| 95 | C426R | T2065C | NC p7 | 0.0614 |
| 96 | Y301C | A1691G | CA | 0.0539 |
| 97 | W265L | G1583T | CA | 0.148 |
| 98 | A224T | G1459A | CA | 0.0735 |
| 99 | P289S | C1654T | CA | 0.0732 |
| 100 | A146S | G1225T | CA | 0.0276 |
| 101 | A366T | G1885A | p2 | 0.0665 |
| 102 | R22S | G855C | MA | 0.198 |
| 103 | K110N | A1119T | MA | 0.0429 |
| 104 | N80S | A1028G | MA | 0.0288 |
| 105 | V156G | T1256G | CA | 0.0368 |
| 106 | H358Y | C1861T | CA | 0.101 |
| 107 | L85P | T1043C | MA | 0.179 |
| 108 | V84I | G1039A | MA | 0.0532 |
| 109 | G238E | G1502A | CA | 0.250 |
| 110 | V143E | T1217A | CA | 0.0453 |
| 111 | W155S | G1253C | CA | 0.0757 |
| 112 | G399R | G1984A | NC p7 | 0.457 |
| 113 | D213G | A1427G | CA | 0.0794 |
| 114 | Y79N | T1024A | MA | 0.0272 |
| 115 | T180S | A1327T | CA | 0.0624 |
| 116 | Y132N | T1183A | MA | 0.0646 |
| 117 | E52G | A944G | MA | 0.168 |
| 118 | G381V | G1931T | NC p7 | 0.0396 |
| 119 | I256T | T1556C | CA | 0.125 |
| 120 | Q108E | C1111G | MA | 0.0228 |
| 121 | S38G | A901G | MA | 0.158 |
| 122 | G193E | G1367A | CA | 0.129 |
| 123 | E365V | A1883T | p2 | 0.0225 |
| 124 | K18E | A841G | MA | 0.0475 |
| 125 | K202I | A1394T | CA | 0.0522 |
| 126 | T389I | C1955T | NC p7 | 0.250 |

A selection of 7 entries from above:

substitution	base	region	replication capacity index
V143E	T1217A	CA	0.0453
N80S	A1028G	MA	0.0288
D14Y	G829T	MA	0.162
E55D	A954T	MA	0.0679
N327D	A1768G	CA	0.0338
S148A	T1231G	CA	0.0488
Y301C	A1691G	CA	0.0539

The authors read an index above 1 as above wild type (1.9% of all changes in the genome). Nucleotide positions follow pNL4-3.